Measured values from several laboratories, pooled; numbers as filed in NIAID ChemDB.

Common to all: growth or infection tests; species: Mycobacterium avium complex

Conditions beyond the fields shown may differ between rows.

SMILES,read by,endpoint,dose,strain or isolate,value
CC[C@H]1OC(=O)[C@H](C)[C@@H](O[C@H]2C[C@@](C)(OC)[C@@H](O)[C@H](C)O2)[C@H](C)[C@@H](O[C@@H]2O[C@H](C)C[C@H](N(C)C)[C@H]2O)[C@](C)(OC)C[C@@H](C)C(=O)[C@H](C)[C@@H](O)[C@]1(C)O,-,MIC,-,N-978 (HIV+),2 µg/mL
CCc1nc(N)nc(N)c1-c1ccc(Cl)cc1,-,MIC,-,101,32 µg/mL
CO[C@H]1/C=C/O[C@@]2(C)Oc3c(C)c(O)c4c(O)c(c5c(c4c3C2=O)NC2(CCN(CC(C)C)CC2)N=5)=NC(=O)/C(C)=C\C=C\[C@H](C)[C@H](O)[C@@H](C)[C@@H](O)[C@@H](C)[C@H](OC(C)=O)[C@@H]1C,-,MIC,-,N-325 (HIV-),0.8 µg/mL
CC[C@H]1OC(=O)[C@H](C)[C@@H](O[C@H]2C[C@@](C)(OC)[C@@H](OC(C)=O)[C@H](C)O2)[C@H](C)[C@@H](O[C@@H]2O[C@H](C)C[C@H](N(C)C)[C@H]2OC(=O)NNCc2ccc(OC)cc2)C(C)(O)C[C@@H](C)/C(=N\OCCCC2CCCCC2)[C@H](C)[C@@H](O)[C@]1(C)O,-,MIC,-,20096 (clarithromycin-resistant),0.78 µg/mL
NNC(=O)c1ccncc1,-,MIC,-,E12337,0.08–0.1 µg/mL
CO[C@H]1/C=C/O[C@@]2(C)Oc3c(C)c(O)c4c(=O)c(c5oc6cc(N7CCN(CC(C)C)CC7)cc(=O)c6nc5c4c3=C2O)NC(=O)/C(C)=C\C=C\[C@H](C)[C@H](O)[C@@H](C)[C@@H](O)[C@@H](C)[C@H](OC(C)=O)[C@@H]1C,-,MIC,-,N-962 (HIV+),0.05 µg/mL
CC(C)N=C(N)/N=C(\N)NOCCCOc1cc(Cl)c(Cl)cc1Cl,-,MIC,-,189,32 µg/mL
CC[C@H]1OC(=O)[C@H](C)[C@@H](O[C@H]2C[C@@](C)(OC)[C@@H](OC(C)=O)[C@H](C)O2)[C@H](C)[C@@H](O[C@@H]2O[C@H](C)C[C@H](N(C)C)[C@H]2OC(=O)NNC2CCCCC2)C(C)(O)C[C@@H](C)/C(=N\OCCCC2CCCCC2)[C@H](C)[C@@H](O)[C@]1(C)O,-,MIC,-,20092 (clarithromycin-resistant),0.39 µg/mL
CC1(C)N=C(N)N=C(N)N1OCCCOc1cc(Cl)c(Cl)cc1Cl,-,MIC,-,DW18,1 µg/mL
NNC(=O)c1ccncc1,-,MIC,-,N-980 (HIV+),2 µg/mL
CC[C@H]1OC(=O)[C@H](C)[C@@H](O[C@H]2C[C@@](C)(OC)[C@@H](OC(C)=O)[C@H](C)O2)[C@H](C)[C@@H](O[C@@H]2O[C@H](C)C[C@H](N(C)C)[C@H]2OC(=O)NNCCCCc2ccccc2)C(C)(O)C[C@@H](C)/C(=N\OCCCC2CCCCC2)[C@H](C)[C@@H](O)[C@]1(C)O,-,MIC,-,20039 (clarithromycin-susceptible),1.56 µg/mL
CCc1cc(C(N)=S)ccn1,broth dilution,inhibition,5 µg/mL,56 strains,63%
CC[C@H]1OC(=O)[C@H](C)[C@@H](OC(C)=O)[C@H](C)[C@@H](O[C@@H]2O[C@H](C)C[C@H](N(C)C)[C@H]2O)C(C)(O)C[C@@H](C)/C(=N\OCCCOc2ccccc2)[C@H](C)[C@@H](O)[C@]1(C)O,-,MIC,-,20039 (clarithromycin-susceptible),50 µg/mL
N[C@@H]1CONC1=O,agar,inhibition,30 µg/mL,155 strains,6.5%
C[C@@H]1CN(c2c(F)c(N)c3c(=O)c(C(=O)O)cn(C4CC4)c3c2F)C[C@H](C)N1,-,MIC,-,Isolate 90-0731,1 µg/mL
CCCCCCC(=O)O[C@H]1[C@H](C)[C@@H](O[C@@H]2O[C@H](C)C[C@H](N(C)C)[C@H]2O)C(C)(O)C[C@@H](C)/C(=N\OCCCOc2ccccc2)[C@H](C)[C@@H](O)[C@](C)(O)[C@@H](CC)OC(=O)[C@@H]1C,-,MIC,-,20039 (clarithromycin-susceptible),3.13 µg/mL

The last 2 rows once more:

| SMILES | read by | endpoint | dose | strain or isolate | value |
|---|---|---|---|---|---|
| C[C@@H]1CN(c2c(F)c(N)c3c(=O)c(C(=O)O)cn(C4CC4)c3c2F)C[C@H](C)N1 | - | MIC | - | Isolate 90-0731 | 1 µg/mL |
| CCCCCCC(=O)O[C@H]1[C@H](C)[C@@H](O[C@@H]2O[C@H](C)C[C@H](N(C)C)[C@H]2O)C(C)(O)C[C@@H](C)/C(=N\OCCCOc2ccccc2)[C@H](C)[C@@H](O)[C@](C)(O)[C@@H](CC)OC(=O)[C@@H]1C | - | MIC | - | 20039 (clarithromycin-susceptible) | 3.13 µg/mL |

An empty or dashed field is not shown. Percent inhibition refers to the dose given; in toxicity tests it is the harm to the cells. a–b is a range or a potency band.